Anti-infective test results gathered from many reports (values: NIAID ChemDB through PubChem).

All rows: enzyme or target tests; organism: Hepatitis C virus

Blank or dashed fields: not listed here.

{"compound": "O=C(COc1ccc(OC(F)(F)F)cc1)Nc1cscc1-c1nc(C(=O)O)c(O)c(=O)[nH]1", "read-out": "IC50", "target": "HCV polymerase", "value": "<25 µM"}
{"compound": "Cc1ccc(C(=O)N(C)c2cc(-c3ccc(C(F)(F)F)cc3)sc2C(=O)O)cc1", "read-out": "IC50", "target": "NS3 ATPase", "value": "<5 µM"}
{"compound": "CCC(NC(=O)Nc1ccsc1-c1nc(C(=O)O)c(O)c(=O)[nH]1)c1ccccc1", "read-out": "IC50", "target": "HCV polymerase", "value": "<25 µM"}
{"compound": "O=C(O)c1sc(-c2ccccc2)cc1NC(=O)N1CCc2ccccc2C1", "read-out": "IC50", "target": "NS3 ATPase", "value": "5–20 µM"}
{"compound": "O=C(NCc1ccc(Cl)c(Cl)c1)Nc1cccc(-c2nc(C(=O)O)c(O)c(=O)[nH]2)c1", "read-out": "IC50", "target": "HCV polymerase", "value": "<100 µM"}
{"compound": "COc1ccc(-c2cccc([N+](=O)[O-])c2)c(-c2ccc3cc(-c4nc5cc(C(=O)O)ccc5n4C4CCCCC4)ccc3n2)c1", "read-out": "inhibition", "dose": "33 µM", "target": "NS5B polymerase", "value": "98.26%"}
{"compound": "O=C(NCc1ccccc1C(F)(F)F)Nc1cscc1-c1nc(C(=O)O)c(O)c(=O)[nH]1", "read-out": "IC50", "target": "HCV polymerase", "value": "<25 µM"}
{"compound": "CNC(=O)c1c(-c2ccc(F)cc2)oc2cc(OCc3ccccc3)c(OCc3ccccc3)cc12", "read-out": "IC50", "target": "Nonstructural protein 5B", "value": ">30 µM"}
{"compound": "O=C(O)c1nc(-c2ccccc2NS(=O)(=O)c2c(F)cc(Br)cc2F)[nH]c(=O)c1O", "read-out": "IC50", "target": "HCV polymerase", "value": "<100 µM"}
{"compound": "O=C(O)c1sc(-c2ccccc2)cc1NS(=O)(=O)c1cc(F)c(Br)cc1F", "read-out": "IC50", "target": "NS3 ATPase", "value": "<5 µM"}
{"compound": "O=C(O)c1cc2nc(-c3ccc(Cl)cc3Cl)cc(-c3cccc(Cl)c3)n2n1", "read-out": "IC50", "target": "RNA-dependent RNA polymerase", "value": ">10 µM"}
{"compound": "CN(C(=O)Cc1ccc(F)cc1)c1cc(-c2ccccc2)sc1C(=O)O", "read-out": "IC50", "target": "NS3 ATPase", "value": "<5 µM"}
{"compound": "CNC(=O)c1c(-c2ccc(F)cc2)oc2cc(N3CCOCC3)c(OC(C)c3nccs3)cc12", "read-out": "IC50", "target": "Nonstructural protein 5B", "value": "≤0.5 µM"}
{"compound": "O=C(O)c1sc(-c2ccccc2)cc1NS(=O)(=O)c1ccc(F)c(C(F)(F)F)c1", "read-out": "IC50", "target": "NS3 ATPase", "value": "5–20 µM"}
{"compound": "COC(=O)c1nc(-c2sccc2NC(=O)c2ccccc2C(=O)O)[nH]c(=O)c1O", "read-out": "IC50", "target": "HCV polymerase", "value": "<50 µM"}
{"compound": "O=C(NC(Cc1ccc(C(=O)c2ccccc2)cc1)C(=O)O)c1ccc2c(c1)nc(-c1ccc3nc(-c4ccccc4)cnc3c1)n2C1CCCCC1", "read-out": "inhibition", "dose": "100 µM", "target": "NS5B polymerase", "value": "98.41%"}
{"compound": "CCc1cc2c(C(=O)NC)c(-c3ccc(F)cc3)oc2cc1NS(C)(=O)=O", "read-out": "IC50", "target": "Nonstructural protein 5B", "value": "≤0.5 µM"}
{"compound": "C=CCN(C(=O)c1ccc(C)cc1)c1cc(-c2ccccc2)sc1C(=O)O", "read-out": "IC50", "target": "NS3 ATPase", "value": "<5 µM"}
{"compound": "CNC(=O)c1c(-c2ccc(F)cc2)oc2cc(-c3nnc(C)o3)c(OC)cc12", "read-out": "IC50", "target": "Nonstructural protein 5B", "value": "≤0.5 µM"}
{"compound": "CC(=O)Nc1nc(C)c(S(=O)(=O)Nc2cc(-c3ccccc3)sc2C(=O)O)s1", "read-out": "IC50", "target": "NS3 ATPase", "value": "5–20 µM"}
{"compound": "CNC(=O)c1c(-c2ccc(F)cc2)oc2cc(NS(C)(=O)=O)c(-c3ccco3)cc12", "read-out": "IC50", "target": "Nonstructural protein 5B", "value": "≤0.5 µM"}
{"compound": "O=C(O)c1cc2nc(-c3ccc(Cl)cc3)cc(-c3cc(Cl)cc(Cl)c3)n2n1", "read-out": "IC50", "target": "RNA-dependent RNA polymerase", "value": ">10 µM"}
{"compound": "CNC(=O)c1c(-c2ccccc2)oc2ccc(C(C)(C)C)cc12", "read-out": "IC50", "target": "Nonstructural protein 5B", "value": "≤0.5 µM"}
{"compound": "NC(=O)c1cc2nc(-c3ccc(Cl)cc3)cc(-c3ccc(Oc4ccccc4)cc3)n2n1", "read-out": "IC50", "target": "RNA-dependent RNA polymerase", "value": ">10 µM"}
{"compound": "O=C(O)c1ccc2c(c1)nc(-c1ccc3nc(-c4ccccc4-c4ccc(Cl)cc4)c(-c4ccccc4)cc3c1)n2C1CCCCC1", "read-out": "inhibition", "dose": "33 µM", "target": "NS5B polymerase", "value": "99.15%"}
{"compound": "O=C(O)c1cc2nc(-c3ccc(Cl)cc3)cc(NCc3ccccc3)n2n1", "read-out": "IC50", "target": "RNA-dependent RNA polymerase", "value": ">10 µM"}
{"compound": "COc1ccc(COc2c(C(=O)O)nc(-c3sccc3NC(=O)CCC(=O)NO)[nH]c2=O)cc1", "read-out": "IC50", "target": "HCV polymerase", "value": "<50 µM"}
{"compound": "Cc1cc(-c2nc3cc(C(=O)O)ccc3n2C2CCCCC2)cc2ccc(-c3ccccc3-c3ccc(Cl)cc3)nc12", "read-out": "inhibition", "dose": "100 µM", "target": "NS5B polymerase", "value": "97.98%"}
{"compound": "COc1ccc(-c2nc3cc(C(=O)O)[nH]n3c(=O)c2C2CCCCC2)cc1", "read-out": "IC50", "target": "RNA-dependent RNA polymerase", "value": "1–10 µM"}
{"compound": "O=C(O)c1ccc2c(c1)nc(-c1ccc3nc(-c4ccc(N5CCOCC5)cc4)ccc3c1)n2C1CCCCC1", "read-out": "inhibition", "dose": "100 µM", "target": "NS5B polymerase", "value": "101%"}
{"compound": "O=C(O)c1nc(-c2ccccc2NS(=O)(=O)c2ccc(C(F)(F)F)cc2)[nH]c(=O)c1O", "read-out": "IC50", "target": "HCV polymerase", "value": "<100 µM"}
{"compound": "CC1CCCCC1C(=O)N(c1cc(-c2ccccc2)sc1C(=O)O)C(C)C", "read-out": "IC50", "target": "NS3 ATPase", "value": "5–20 µM"}
{"compound": "CCn1c(-c2ccc3nc(-c4cc(OC)ccc4-c4ccc(Cl)cc4)ccc3c2)nc2cc(C(=O)O)ccc21", "read-out": "inhibition", "dose": "33 µM", "target": "NS5B polymerase", "value": "90.07%"}

A second listing of 3 rows from above:

compound,read-out,dose,target,value
O=C(O)c1cc2nc(-c3ccc(Cl)cc3)cc(-c3cc(Cl)cc(Cl)c3)n2n1,IC50,-,RNA-dependent RNA polymerase,>10 µM
CC(=O)Nc1nc(C)c(S(=O)(=O)Nc2cc(-c3ccccc3)sc2C(=O)O)s1,IC50,-,NS3 ATPase,5–20 µM
COc1ccc(-c2nc3cc(C(=O)O)[nH]n3c(=O)c2C2CCCCC2)cc1,IC50,-,RNA-dependent RNA polymerase,1–10 µM

ICn is the concentration giving n% inhibition. Conditions beyond the fields shown may differ between rows. a–b is a range or a potency band. Percent inhibition refers to the dose given; in toxicity tests it is the harm to the cells.